The record followed here is PMC2677997 (Bioorganic & medicinal chemistry, 2009).

Protein sequences, listed by entry. Tags and fused reporters are not part of them. Residues count along the entry.
UniProt P0DPI0, 1-425 limits assumed: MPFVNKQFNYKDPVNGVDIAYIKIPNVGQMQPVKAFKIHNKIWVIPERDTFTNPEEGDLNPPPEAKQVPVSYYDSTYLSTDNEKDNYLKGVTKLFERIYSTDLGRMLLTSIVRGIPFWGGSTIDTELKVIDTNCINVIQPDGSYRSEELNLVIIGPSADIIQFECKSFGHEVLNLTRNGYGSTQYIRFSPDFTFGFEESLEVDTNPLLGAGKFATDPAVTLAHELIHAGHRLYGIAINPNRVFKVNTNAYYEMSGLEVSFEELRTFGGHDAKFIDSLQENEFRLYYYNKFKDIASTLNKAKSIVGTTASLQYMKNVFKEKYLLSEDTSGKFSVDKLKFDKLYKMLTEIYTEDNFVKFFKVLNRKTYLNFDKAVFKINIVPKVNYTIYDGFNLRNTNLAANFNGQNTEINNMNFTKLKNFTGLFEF

In the experiment the target is BoNT/A LC (BoNTA-LC 1-425) (Clostridium botulinum, UniProt P0DPI0). The experiment is classed as biochemical. To be noted: read-out: IC50 (μM) BoNT/A.

`O=C(CS)Nc1cc(-c2cccc(Cl)c2)n[nH]1` [Compound 12g, N-(3-(3-Chlorophenyl)-1H-pyrazol-5-yl)-2-mercaptoacetamide]: the IC50 was found to be 5.6 ± 0.2 µM.
